PubChem BioAssay AID624099 | ICCB-Longwood – 2012

- Purpose: 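Human genes that papillomavirus E2 requires to repress the HPV18 LCR promoter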 (primary screen)
- Cell system: human C33A cervical carcinoma cells (HPV-negative) stably expressing BPV1 E2 and an HPV18 LCR luciferase reporter
- Reagents: siRNA pool against human genes, 40 nM
- Duration: 72 h
- Read-out: 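HPV18 LCR reporter light per well, converted to plate-wise z-scores that exclude control wells, and averaged over triplicate plates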
- Direction: mean z-score and z-score: higher = stronger reporter signal, weaker E2 silencing
- Call rule: 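Mean z ≥ 2 together with z ≥ 2 in two or more of the three replicates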
Shown is one part, drawn at random, of about 21,000 reagents tested. Of all reagents, 497 (2.4%) got an active call. 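Higher z means weaker E2 silencing; only reporter increases were scored, and knock-downs that hurt cell survival may mask genuine repressor factors.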

For LOC388641 (retired record), the values are mean z-score -0.01; z-score, replicate A = 0.57; z-score, replicate B = 0.02; z-score, replicate C = -0.61; inactive.
For TMEM144, the values are mean z-score 0.16; z-score, replicate A = 0.35; z-score, replicate B = 0.61; z-score, replicate C = -0.49; inactive.
After knock-down of LOXL1 the results were mean z-score -0.88; z-score, replicate A = -1.09; z-score, replicate B = -0.64; z-score, replicate C = -0.91; inactive.
Knock-down of NSRP1 resulted in: mean z-score 0.24; z-score, replicate A = 0.43; z-score, replicate B = -0.13; z-score, replicate C = 0.41; inactive.
After knock-down of CIMIP5, the screen gave mean z-score -0.24; z-score, replicate A = -0.11; z-score, replicate B = -0.21; z-score, replicate C = -0.41; inactive.
SQLE scored mean z-score 0.59; z-score, replicate A = 0.23; z-score, replicate B = -0.09; z-score, replicate C = 1.63; inactive.
LOC392582 (retired record) scored mean z-score -0.96; z-score, replicate A = -1.05; z-score, replicate B = -1.02; z-score, replicate C = -0.8; inactive.
With knock-down of NUCB1, the screen gave mean z-score 1.16; z-score, replicate A = 1.25; z-score, replicate B = 1.61; z-score, replicate C = 0.62; inactive.

Copied from the list.
Under “z-score, replicate C”, TMEM144 has -0.49
CIMIP5, z-score, replicate A → -0.11

Further entries follow:
Silencing of VPS51 gave: mean z-score -0.19; z-score, replicate A = -0.29; z-score, replicate B = -0.28; z-score, replicate C = 0.01; inactive.
LOC286404 (retired record) scored mean z-score 0.75; z-score, replicate A = 0.99; z-score, replicate B = 0.72; z-score, replicate C = 0.55; inactive.
For ACSM4 the deposit lists mean z-score 0.1; z-score, replicate A = 0.63; z-score, replicate B = -0.32; z-score, replicate C = -0.02; inactive.
With knock-down of TDRD5, the record shows mean z-score -0.48; z-score, replicate A = -0.51; z-score, replicate B = -0.42; z-score, replicate C = -0.52; inactive.
After knock-down of PMEPA1 the results were mean z-score -0.7; z-score, replicate A = -0.94; z-score, replicate B = -0.73; z-score, replicate C = -0.43; inactive.
Silencing of MAGEF1 resulted in: mean z-score -0.49; z-score, replicate A = -0.52; z-score, replicate B = -0.55; z-score, replicate C = -0.41; inactive.
Depletion of ANKRD18A came out at: mean z-score 1.14; z-score, replicate A = 1.46; z-score, replicate B = 1.03; z-score, replicate C = 0.92; inactive.
DDI2 scored mean z-score 1.19; z-score, replicate A = 1.29; z-score, replicate B = 1.11; z-score, replicate C = 1.17; inactive.
Silencing of DMD gave: mean z-score 0.76; z-score, replicate A = 0.98; z-score, replicate B = 0.64; z-score, replicate C = 0.64; inactive.
With knock-down of NXF4 the results were mean z-score 0.38; z-score, replicate A = 0.82; z-score, replicate B = -0.11; z-score, replicate C = 0.43; inactive.
HDAC8 scored mean z-score -0.22; z-score, replicate A = -0.01; z-score, replicate B = -0.15; z-score, replicate C = -0.51; inactive.
For LOC399786 (retired record) the deposit lists mean z-score 0.26; z-score, replicate A = 0.48; z-score, replicate B = 0.07; z-score, replicate C = 0.22; inactive.
Against UTP14A the deposit lists mean z-score -0.19; z-score, replicate A = -0.36; z-score, replicate B = 0; z-score, replicate C = -0.21; inactive.
